This is an account of results in PubChem BioAssay AID449762 (Southern Research Specialized Biocontainment Screening …, 2010).

Structures are written as SMILES. This is one part of the list. Records with an inconclusive call do not appear. Activity calls are given as the source filed them. Rule as the data show it: inconclusive = inhibition above about 70% without an active follow-up result; inactive = below that.

The experiment can be described thus: M. tuberculosis growth inhibition, HTS (AID 449762).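 Also: bacterial growth assessed after seven days of incubation.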 As to conditions: M. tuberculosis H37Rv growth inhibition, 7H9 media; at 25 µM; active compounds read high.
The term inhibition denotes the change of the read-out against control, counted positive when it falls. As for `CC(=O)Nc1ccc([As](=O)(O)O)cc1`, the inhibition is inactive: -2.46%.
To `O=C(O)c1ccccc1[As](=O)(O)O` belongs inactive: -2.48%.
With `CN(C(=O)Cc1ccc(Cl)c(Cl)c1)[C@H]1CCCC[C@@H]1N1CCCC1` the figure was inactive: -2.79%; with `Cc1ccc(NP(=O)(Oc2ccccc2F)Oc2ccccc2F)nc1`, inactive: -0.24%.
To `Cc1cc(SC(NC(=O)c2ccc(F)cc2)C(Cl)(Cl)Cl)ncn1` (configuration not stated) belongs inactive: 3.09%.
For the molecule `CCOP(=O)(Nc1ccccc1)OCC`, the inhibition was inactive: 1.12%.
Consider `O=[N+]([O-])c1cc([N+](=O)[O-])c(CCN2CCOCC2)c([N+](=O)[O-])c1`, for which the inhibition was inactive: 51.2%.
On to `Nc1cccc2ccc([As](=O)(O)O)cc12`, for which the inhibition was inactive: -3.37%.
On to `CCN(N=Nc1nonc1N)c1nonc1N`, for which the inhibition is inactive: 1.38%.
With `Cc1ccc(NP(=O)(Oc2cccc(C)c2)Oc2cccc(C)c2)nc1` the figure was inactive: -1.33%; with `CCOC(=O)NC(Sc1ccccc1)C(Cl)(Cl)Cl` (configuration not stated), inactive: -5%; with `c1ccc(-c2nn[nH]n2)c(-c2nn[nH]n2)c1`, inactive: -12.8%.
With `O=C(NC1CCS(=O)(=O)C1)NP(=S)(Oc1ccccc1)Oc1ccccc1` (configuration not stated) the figure was inactive: -2.34%; with `CCNC(=S)/N=C(\N)N[N+](=O)[O-]`, inactive: 1.2%.
For the molecule `CCC(=O)N1C2C3N(C(=O)CC)C1C1N(C(=O)CC)C(C(N1C(=O)CC)N3C(=O)CC)N2C(=O)CC`, the inhibition was inactive: -6.81%.
To `O=C(OC1CN2CCC1CC2)c1ccccc1` (configuration not stated) belongs inactive: -4.47%.
To `CC(=O)NC(SC(=S)N(CC(C)C)CC(C)C)C(Cl)(Cl)Cl` (configuration not stated) belongs inactive: 4.23%; to `Cc1ccc(OP(=O)(Nc2ccccn2)Oc2ccc(C)cc2)cc1`, inactive: -2.68%.
As to `COC(=O)c1cc2c(s1)N=C(c1ccccc1)N(C)P2(=O)N1CCOCC1` (configuration not stated), the inhibition was inactive: -11.9%.
With `CN(C)C(=O)Oc1noc2ccccc12` the figure was inactive: -4.12%; with `CC(NC(=O)COC(=O)C(O)(c1ccccc1)c1ccccc1)c1ccccc1` (configuration not stated), inactive: -10.4%; with `Cc1ccccc1OP(=O)(Nc1ccccn1)Oc1ccccc1C`, inactive: -2.05%.
In the case of `CCOc1ccc(C2=NCC(CBr)S2)cc1` (configuration not stated), the inhibition is inactive: -1.96%.
For `O=P1(Nc2nc3ccc(Cl)cc3s2)COc2ccccc2O1` (configuration not stated), the inhibition is inactive: -2.64%.
With `CC(C)(C)C(=O)NC(Sc1ccccc1)C(Cl)(Cl)Cl` (configuration not stated) the figure was inactive: -2.37%.
As for `C[C@H]1OP(=O)(Oc2ccccc2)C[C@@H]2O[C@@H]21` (some centres not stated), the inhibition was inactive: -1.15%.
To `C[C@@H]1C=CCP(=O)(Oc2ccccc2)O1` (some centres not stated) belongs inactive: -4.78%.
Turning to `Cc1ccccc1CN(C)C(=O)COC(=O)C(O)(c1ccccc1)c1ccccc1`, the inhibition was inactive: -2.65%.
To `CC(=O)c1ccc(N2CC2c2ccncc2)cc1` (configuration not stated) belongs inactive: -9.24%; to `CC(=O)Nc1ccc(Oc2c([N+](=O)[O-])cc([N+](=O)[O-])cc2[N+](=O)[O-])cc1`, inactive: 3.45%; to `CC(=O)Nc1ccc([As](=O)(O)O)c(O)c1`, inactive: -1.4%.
To `O=P(Nc1nccs1)(c1ccccc1)c1ccccc1` belongs inactive: -0.12%; to `CC(C)C(=O)NC(Sc1ccccc1)C(Cl)(Cl)Cl` (configuration not stated), inactive: 4.25%.
To `c1nnnn1CCn1cnnn1` belongs inactive: -11.2%.
On to `CN(C)C1(CNC(=O)c2ccc(Cl)c(S(N)(=O)=O)c2)CCCCC1`, for which the inhibition is inactive: 4.14%.
`O=P(Nc1ccccn1)(c1ccc(Br)cc1)c1ccc(Br)cc1`: the inhibition was inactive: 22.4%.
Turning to `C[C@H]1OP(=O)(Oc2ccccc2)[C@H](O)[C@H](O)[C@H]1N=[N+]=[N-]` (some centres not stated), the inhibition is inactive: -4.12%.
To `O=P(Nc1nc2ccccc2s1)(c1ccccc1)c1ccccc1` belongs inactive: -2.63%; to `O=[As](O)(c1ccccc1)c1ccc(O)cc1`, inactive: -14.8%.
On to `O=[N+]([O-])c1ncn(CCn2cnc([N+](=O)[O-])n2)n1`, for which the inhibition was inactive: 3.76%.
With `O=C(OC1CN2CCC1CC2)c1cccc(Cl)c1` (configuration not stated) the figure was inactive: -6.37%; with `C(Cc1nn[nH]n1)Cc1nn[nH]n1`, inactive: 0.27%; with `Nc1ccc([As](=O)(O)c2ccc([N+](=O)[O-])cc2)cc1`, inactive: 4.13%.
Turning to `Cc1ccc(C(=O)OC2CN3CCC2CC3)cc1` (configuration not stated), the inhibition was inactive: -18.5%.
As to `CC1CCC(C(C)C)C(OP(=O)(Nc2ccccn2)c2ccccc2)C1` (configuration not stated), the inhibition was inactive: 4.72%.
To `Cc1nn(-c2ccccc2)c2c1P(=O)(N1CCOCC1)N(C)C(c1ccccc1)=N2` (configuration not stated) belongs inactive: -1.66%; to `CN(C)C1(CNC(=O)c2ccc(S(C)(=O)=O)cc2)CCCCC1`, inactive: 3.69%; to `O=C(/C=C/c1ccccc1)OC1CN2CCC1CC2` (configuration not stated), inactive: 2.38%.
For `O=P1(Nc2ncccn2)COc2ccccc2OC1`, the inhibition was inactive: -5.86%.
Consider `Nc1cccc([As](=O)(O)c2ccccc2)c1`, for which the inhibition is inactive: -5.47%.
To `Cc1ccc(OCC(=O)OC2CN3CCC2CC3)cc1` (configuration not stated) belongs inactive: -0.76%; to `O=[As](O)(c1cccs1)c1cccs1`, inactive: 0.29%; to `NS(=O)(=O)c1cccc(NC(=O)COC(=O)C(O)(c2ccccc2)c2ccccc2)c1`, inactive: -5.91%.
In the case of `O=P1(Nc2ccc(Br)cn2)COc2ccccc2OC1`, the inhibition is inactive: -6.49%.
To `CCOP(=O)(NC(=NC(C)c1ccccc1)NC(C)c1ccccc1)OCC` (configuration not stated) belongs inactive: -6.15%; to `O=P1(Nc2ccccn2)COc2ccccc2OC1`, inactive: -0.09%; to `CCOP(=O)(Nc1ccc(C)cn1)OCC`, inactive: 2.56%.
On to `CN(CCCl)Cc1cc(Cl)c(NC2=NCCN2)c(Cl)c1`, for which the inhibition is inactive: 6.02%.
`CC(C)(C)C(=O)NC(Sc1ncccn1)C(Cl)(Cl)Cl` (configuration not stated): the inhibition is inactive: -3.66%.
Turning to `Clc1n[nH]nc1-c1nn[nH][15n]1`, the inhibition is inactive: 2.7%.
With `COc1ccccc1CNC(=O)COC(=O)C(O)(c1ccccc1)c1ccccc1` the figure was inactive: -1.19%; with `CN(C(=O)Cc1ccc(Cl)c(Cl)c1)[C@@H]1CCCC[C@H]1N1CCCC1`, inactive: 2.58%; with `CC(C)/C=N\N=C(\N)N[N+](=O)[O-]`, inactive: -0.73%.
To `CC1(CBr)Cn2c(nc3ccccc3c2=O)S1` (configuration not stated) belongs inactive: -6.61%.
With `O=[As](O)(c1ccccc1Br)c1ccccc1Br` the figure was inactive: 7.17%.
In the case of `O=C(OC1CN2CCC1CC2)c1ccc(Cl)cc1` (configuration not stated), the inhibition was inactive: -13.8%.
As for `CS(=O)(=O)c1ccc(Cl)c(NC(=O)COC(=O)C(O)(c2ccccc2)c2ccccc2)c1`, the inhibition was inactive: 3.64%.
To `O=[As](O)(O)c1cccnc1` belongs inactive: -5.07%; to `COc1cc(C(=O)NCC2(N3CCOCC3)CCCCC2)cc(Cl)c1OC(C)C`, inactive: -0.96%.
Regarding `Cc1cccc(OCC(=O)OC2CN3CCC2CC3)c1` (configuration not stated), the inhibition is inactive: -5.14%.
For the molecule `O=[As](O)(c1cccc(O)c1)c1cccc(O)c1`, the inhibition was inactive: 13.2%.
To `Nc1cccc2c([As](=O)(O)O)cccc12` belongs inactive: -6.59%; to `CCCOP(=S)(Nc1nc(N)cc(=O)[nH]1)OCCC`, inactive: -5.38%.
To `CCOP(=O)(Nc1cccc2ccccc12)OCC` belongs inactive: 4.75%; to `COc1cc(C2NCCC3(OCCO3)C2(C)C)cc(OC)c1OC` (configuration not stated), inactive: -1.41%.
With `O=P(Nc1nccs1)(Oc1ccccc1)Oc1ccccc1` the figure was inactive: 1.41%.
Regarding `O=P(Nc1nccs1)(c1ccccc1)c1nc2ccccc2s1` (configuration not stated), the inhibition was inactive: -0.52%.
With `CCOP1(=S)c2c(C)nn(CCC#N)c2N=C(c2ccccc2F)N1C` (configuration not stated) the figure was inactive: 0.03%; with `CS(=O)(=O)c1cc([N+](=O)[O-])c2no[n+]([O-])c2c1`, inactive: -10.4%; with `O=C(O)COc1ccc([As](=O)(O)O)cc1[N+](=O)[O-]`, inactive: 7.08%.
As for `Nc1ccccc1[As](=O)(O)c1ccccc1`, the inhibition was inactive: 7.11%.
To `NC(=O)Nc1ccc([As](=O)(O)O)cc1` belongs inactive: -4.12%; to `CN(C(=O)Cc1ccccc1)[C@@H]1CC[C@]2(CCCO2)C[C@H]1N1CCCC1`, inactive: -1.5%.
With `CCOP1(=S)c2c(C)nn(CCC#N)c2N=C(c2ccc(F)cc2)N1C` (configuration not stated) the figure was inactive: -1.67%; with `N#CCCN(C(=O)COC(=O)C(O)(c1ccccc1)c1ccccc1)c1ccc(F)cc1`, inactive: -3.35%; with `CN(C(=O)Cc1ccc(Cl)c(Cl)c1)[C@H]1CC[C@@]2(CCCO2)C[C@@H]1N1CCCC1`, inactive: -1.37%.
With `COc1cc(C(=O)NCC2(N3CCOCC3)CCCCC2)ccc1OCC(C)C` the figure was inactive: 0.69%.
For the molecule `O=[As](O)(c1ccc(O)cc1)c1ccccc1O`, the inhibition is inactive: 4.69%.
As to `C[As](=O)(O)c1cccc(C(=O)O)c1`, the inhibition is inactive: -1.97%.
To `Cc1ccc(OP(=O)(Nc2ccc([N+](=O)[O-])cn2)Oc2ccc(C)cc2)cc1` belongs inactive: 0.32%; to `Cc1ccc2nc3c(c(C)c2c1)CC(C(Cl)Cl)S3` (configuration not stated), inactive: 6.06%; to `ClCCSc1nnc(-c2cccnc2)o1`, inactive: -4.4%.
To `CC(C)c1ccc(OP(=O)(Nc2ccccn2)Oc2ccccc2F)cc1` (configuration not stated) belongs inactive: 5.2%; to `CC(C)NC(=O)NP(=O)(Oc1ccccc1)Oc1ccccc1`, inactive: -3.75%; to `Cc1c2c(nc3ccccc13)SC(C(Cl)Cl)C2` (configuration not stated), inactive: 4.32%.
With `Cc1cc(=O)[nH]c(N[N+](=O)[O-])n1` the figure was inactive: 4.02%; with `O=C(OC1CN2CCC1CC2)C12CC3CC(CC(C3)C1)C2` (configuration not stated), inactive: 7.66%.
`COc1cc(I)ccc1[As](=O)(O)O`: the inhibition was inactive: -0.6%.
To `COc1ccc2nc(NP(=O)(c3ccccc3)c3ccccc3)sc2c1` belongs inactive: 2.76%.
With `COc1ccc(N/C(=N/P(=O)(N2CCOCC2)N2CCOCC2)N2CCOCC2)cc1` the figure was inactive: -11.6%.
As for `COP1(=S)c2c(C)nn(CCC#N)c2N=C(c2ccc(F)cc2)N1C` (configuration not stated), the inhibition was inactive: -1.77%.
With `O=C(Nc1ccncc1[N+](=O)[O-])c1ccc([N+](=O)[O-])cc1[N+](=O)[O-]` the figure was inactive: 7.2%; with `O=C(COc1ccccc1)OC1CN2CCC1CC2` (configuration not stated), inactive: -4.3%.
As to `O=C(OC1CN2CCC1CC2)c1cccc([N+](=O)[O-])c1` (configuration not stated), the inhibition is inactive: 1.96%.
With `CCOC(=O)c1ccc(NC(=O)C(C)(CCl)SC)cc1` (configuration not stated), the inhibition was inactive: 6.77%.
On to `CCC(C)N(CC(C)C)C(=S)SC(NC(C)=O)C(Cl)(Cl)Cl` (configuration not stated), for which the inhibition was inactive: -3.25%.
Turning to `CCOC(=O)Nc1ccc([As](=O)(O)O)c(O)c1`, the inhibition is inactive: 8.63%.
With `Cc1cc(SC(NC(=O)c2ccccc2)C(Cl)(Cl)Cl)nc(C(C)C)n1` (configuration not stated) the figure was inactive: -2.99%; with `CCOC(=O)Nc1cccc([As](=O)(O)O)c1`, inactive: -0.89%.
With `Cc1cc(SC(NC=O)C(Cl)(Cl)Cl)ncn1` (configuration not stated) the figure was inactive: 7.09%; with `O=P(Nc1ccccn1)(c1cccc2ccccc12)c1cccc2ccccc12`, inactive: -5.68%.
To `O=[N+]([O-])c1ccc(Nc2ccc(Oc3ccc([N+](=O)[O-])cc3[N+](=O)[O-])cc2)c([N+](=O)[O-])c1` belongs inactive: 2.7%.
